Pooled drug test results. Numbers come from NIAID ChemDB, via PubChem.

Shared fields: target-level tests; agent: HIV-1; target: Integrase; measure: IC50

Rows are shuffled and stem from different studies.

structure,method,value
CC(C)C(O)c1cc(=O)c(O)c2n1CCN(Cc1ccc(Cl)c(Cl)c1)C2=O,ELISA,0.01–0.1 µM
O=C(CN1CCOCC1)N1CCC(n2c(=O)c(O)c3n(c2=O)CCN(Cc2ccc(F)cc2)C3=O)CC1,strand transfer,<10 µM
CC(C)(C)N(Cc1ccc(F)cc1)C(=O)/C=C(\O)C(=O)O,strand transfer,>70 µM
CC(=O)N1CCCC(n2c(=O)c(O)c3n(c2=O)CCN(Cc2ccc(F)cc2)C3=O)C1,strand transfer,<10 µM
O=C(NCc1ccc(F)cc1)c1nc2n(c(=O)c1O)CCNC2COCc1ccccc1,ELISA,<10 µM
O=C1c2c(O)c(=O)ccn2CCN1Cc1ccccc1,ELISA,0.1–1 µM
CC1(C)c2nc(C(=O)NCc3ccc(F)cc3)c(O)c(=O)n2CCN1CCc1ccccn1,ELISA,<10 µM
CN(Cc1ccco1)C(=O)/C=C(\O)C(=O)O,strand transfer,<70 µM
CC1(C)Cn2ccc(=O)c(O)c2C(=O)N1Cc1ccc(Cl)c(Cl)c1,ELISA,0.01–0.1 µM
CSc1ccccc1CNC(=O)c1nc2n(c(=O)c1O)CN(C)C2(C)C,ELISA,<10 µM
O=C(/C=C(\O)C(=O)O)NC(c1ccc(Cl)cc1)c1ccc(Cl)cc1,strand transfer,<70 µM
CC(C)n1c(=O)c(O)c2n(c1=O)C(CCN(C)Cc1ccccc1)CN(Cc1ccc(F)cc1)C2=O,strand transfer,<10 µM
O=C1c2c(O)c(=O)c(-c3nccs3)cn2CCN1Cc1cccc(F)c1,ELISA,0.01–0.1 µM
CC1(C)c2nc(C(=O)NCc3ccc(F)cc3)c(O)c(=O)n2CCN1CC(N)=O,ELISA,<10 µM
CN(Cc1ccccc1F)C(=O)/C=C(\O)C(=O)O,strand transfer,<70 µM
O=C(c1ccccc1)c1cn2ccn(Cc3cccc(Cl)c3)c(=O)c2c(O)c1=O,ELISA,0.01–0.1 µM
CNCCC1CN(Cc2ccc(F)cc2)C(=O)c2c(O)c(=O)n(C(C)C)c(=O)n21,strand transfer,<10 µM
O=C1c2c(O)c(=O)c(-c3nccs3)cn2CCN1Cc1ccccc1F,ELISA,0.1–1 µM
CC1(C)c2nc(C(=O)NCc3ccc(F)cc3)c(O)c(=O)n2CCN1CC#N,ELISA,<10 µM
O=C1c2c(O)c(=O)c3ccccc3n2CCN1Cc1cccc(Cl)c1,ELISA,0.01–0.1 µM
CN(C(=O)/C=C(\O)C(=O)O)C(c1ccc(F)cc1)c1ccc(F)cc1,strand transfer,<70 µM

3 of the rows above, restated:

structure	method	value
CC(=O)N1CCCC(n2c(=O)c(O)c3n(c2=O)CCN(Cc2ccc(F)cc2)C3=O)C1	strand transfer	<10 µM
CC(C)(C)N(Cc1ccc(F)cc1)C(=O)/C=C(\O)C(=O)O	strand transfer	>70 µM
O=C(NCc1ccc(F)cc1)c1nc2n(c(=O)c1O)CCNC2COCc1ccccc1	ELISA	<10 µM

ICn: concentration for n% inhibition. Two numbers with a dash give a range or band.